Anti-infective test results gathered from many reports (values: NIAID ChemDB through PubChem).

Common to all: whole-cell or culture tests; agent: Mycobacterium tuberculosis

MIC50, MIC90 and the like: level of inhibition, or share of isolates inhibited. MIC bound: limit read from a one-dose screen. Inhibition is in % at the dose shown (toxicity tests: loss of growth or viability). Rows are shuffled and stem from different studies. Blank or dashed fields: not listed here. ECn is the concentration giving n% inhibition of infection, replication or growth.

structure | method | strain | tested at | measure | value
OC1(C#CC2(O)CCC3CCCCC3C2)CCCCC1 |  | H37Rv |  | MIC | 50 µg/mL
COc1ccc(CCNCCNCCC2=CCCCC2)cc1 |  |  |  | MIC | 12.5 µM
CN1CCCC(CN2c3ccccc3Sc3ccccc32)C1 | BACTEC | H37Rv |  | MIC bound | >12.5 µg/mL
C[C@H]1C[C@H](N)CN1c1cc2c(cc1F)c(=O)c(C(=O)O)cn2-c1ccc(F)cc1F |  | DRUG-SUS |  | MBC90 | >8 µg/mL
NC[C@H]1O[C@H](O[C@H]2[C@H](O)[C@@H](O[C@H]3O[C@H](CO)[C@@H](O)[C@H](N)[C@H]3O)[C@H](N)C[C@@H]2N)[C@H](O)[C@@H](O)[C@@H]1O |  | A4B (amikacin-resistant) |  | MIC | 4 µg/mL
CCOC(=O)Nc1cc(Nc2ccc(Cl)cc2)c([N+](=O)[O-])c(N)n1 |  | H37Rv |  | EC50 | >12.5 µg/mL
Brc1ccccn1 |  | H37Rv |  | MIC | >100 µg/mL
CO[C@H]1/C=C/O[C@@]2(C)Oc3c(C)c(O)c4c(O)c(c(/C=N/N5CCN(C6CCCC6)CC5)c(O)c4c3C2=O)NC(=O)/C(C)=C\C=C\[C@H](C)[C@H](O)[C@@H](C)[C@@H](O)[C@@H](C)[C@H](O)[C@@H]1C |  | H37Rv |  | MIC | 0.25 µg/mL
O=C(Nc1ccc(C2=NCCN2)cc1)c1cccc(C(=O)Nc2ccc(C3=NCCN3)cc2)n1 | BACTEC | H37Rv | 128 µg/mL | inhibition | 66%
Cc1ccc(S(=O)(=O)Nc2cc(S(=O)(=O)O)cc3cc(S(=O)(=O)[O-])cc(O)c23)cc1.[Na+] |  | H37Rv |  | MIC | >100 µg/mL
CC1(C)C(=O)CC[C@]2(C)[C@H]3CC[C@@]4(C)[C@H](c5ccoc5)OC(=O)[C@H]5O[C@]54[C@]3(C)[C@H](O)C[C@@H]12 | BACTEC | H37Rv | 12.5 µg/mL | inhibition | 27%
CCCCCCCCCCCCCCCCNC(=O)C(=O)NCCCCCCCCCCCCCCCC |  | H37Rv |  | MIC | 100 µg/mL
O=C1CN(c2cccc(Cl)c2)C(=O)CN1NCNN1CC(=O)N(c2cccc(Cl)c2)CC1=O | resazurin | H37Rv | 6.25 µg/mL | inhibition | 7%
CC(=O)NCCNS(=O)(=O)c1ccccc1 |  | H37Rv |  | MIC | 100 µg/mL
COc1ccc(C2Oc3cc(F)ccc3C(=O)C2OC(C)=O)cc1 |  |  |  | EC50 | 12.5 µg/mL
Nc1nc(-c2cccc([N+](=O)[O-])c2)c(N=Nc2ccccc2)s1 | BACTEC | H37Rv |  | MIC bound | >6.25 µg/mL
CCOC(=O)Nc1cc(NC(C)C(=O)COc2ccccc2)c([N+](=O)[O-])c(N)n1 |  | H37Rv |  | EC50 | >12.5 µg/mL
COc1ccc2c(c1)OC(c1cccc([N+](=O)[O-])c1)CC2=O |  | H37Rv |  | EC50 | >12.5 µg/mL
O=C1c2ccccc2C(=O)c2c1cc(Cl)c1ccccc21 |  | H37Rv |  | MIC | >100 µg/mL
CCOC(=O)Nc1cc(NC(c2ccccc2)c2ccccc2)c2nc(-c3ccc(Cl)cc3)cnc2n1 |  | H37Rv |  | EC50 | >12.5 µg/mL
S=C1SCCN1CN1CCSC1=S |  | H37Rv |  | MIC | >100 µg/mL
CCCCCCCCCCCCCCCC(=O)O[C@@H]1[C@@H](C)[C@@]2(O)[C@@H](C=C(CO)C[C@]3(O)C(=O)C(C)=C[C@@H]23)[C@H]2[C@]1(OC(C)=O)[C@]2(C)CO | resazurin | H37Rv |  | MIC bound | >6.25 µg/mL
Nc1ccc2c(c1)S(=O)(=O)c1cc(N)ccc1-2 |  | H37Rv |  | MIC | 50 µg/mL
C[C@@H](NCCNC[C@@H]1CC[C@H]2C[C@@H]1C2(C)C)C1CCCCC1 |  |  |  | MIC | 50 µM
O=C(O)c1ccc(NCc2nc3ccccc3[nH]2)cc1 | BACTEC | H37Rv | 6.25 µg/mL | inhibition | 0%
CO[C@H]1/C=C/O[C@@]2(C)Oc3c(C)c(O)c4c(=O)c(c5oc6cc(N7CCN(C(C)C)CC7)cc(=O)c6nc5c4c3=C2O)NC(=O)/C(C)=C\C=C\[C@H](C)[C@H](O)[C@@H](C)[C@@H](O)[C@@H](C)[C@H](OC(C)=O)[C@@H]1C |  | 2847 (rifampin-sensitive) |  | MIC | 0.05 µg/mL
NC1CCN(c2nc3c(cc2F)c(=O)c(C(=O)O)cn3-c2ccc(F)cc2F)C1 |  | ATCC 35830 |  | MIC | 4 µg/mL
c1ccc(CNCCNCCC(c2ccccc2)c2ccccc2)cc1 |  |  |  | MIC | 50 µM
NC(=O)c1ccc[n+](Cc2ccccc2C[n+]2cccc(C(N)=O)c2)c1.[Br-].[Br-] | BACTEC | H37Rv | 12.5 µg/mL | inhibition | 4%
COc1ccc(CCNCCNCCc2ccccc2F)cc1 |  |  |  | MIC | 12.5 µM
CC[C@H]1OC(=O)[C@H](C)[C@@H](O[C@H]2C[C@@](C)(OC)[C@@H](O)[C@H](C)O2)[C@H](C)[C@@H](O[C@@H]2O[C@H](C)C[C@H](N(C)C)[C@H]2O)[C@](C)(O)C[C@@H](C)CN(C)[C@H](C)[C@@H](O)[C@]1(C)O |  | Drug-resistant |  | MIC90 | >8 µg/mL
c1ccc(NCCOc2ccccc2)cc1 |  | H37Rv |  | MIC | >100 µg/mL
COc1ccc2cc1-c1cc(ccc1O)C[C@H]1c3cc4c(cc3CCN1C)Oc1c(OC)cc3c(c1O4)[C@H](C2)N(C)CC3 |  | EMB-R |  | MIC | 3.1 µg/mL
O=C(/C=C/c1ccccc1)c1cccc2ccccc12 |  |  | 12.5 µg/mL | inhibition | 37%
Cc1nc(C)c(C(=O)Nc2cccc3c2C(=O)NC3=O)cc1C(=O)Nc1cccc2c1C(=O)NC2=O | BACTEC | H37Rv |  | MIC bound | >12.5 µg/mL
CCCCC(CC)CN1CN(CC(CC)CCCC)CC(C)(NCCNC(C)Cc2ccc(Cl)cc2)C1 |  |  |  | MIC | 50 µM
CCCCCCCCCCCNCCN[C@H]1C[C@@H]1c1ccccc1 |  |  |  | MIC | 50 µM
Brc1ccc(OCc2ccccc2)cc1 |  | H37Rv |  | MIC | 25 µg/mL
C=CC(C)(O)CCC1C(=C)C(O)CC2C(C)(C)CCCC12C |  | H37Rv |  | MIC bound | >6.25 µg/mL
CCCCC(CC)CN1CN(CC(CC)CCCC)CC(C)(NCCN[C@H](CO)Cc2ccc(Cl)cc2)C1 |  |  |  | MIC | 12.5 µM
Cc1nc(C)c(C)nc1C.O |  | H37Rv |  | MIC | >100 µg/mL
COc1ccc(OC)c(CCNCCNCC2(O)CCCCC2)c1 |  |  |  | MIC | 12.5 µM
CC(C)=CCC/C(C)=C/CNCCNC(C)C12CC3CC(CC(C3)C1)C2 |  |  |  | MIC | 25 µM
CCOC(=O)NC(C(=O)OCC)(N1CCN(c2cc3c(cc2F)c(=O)c(C(=O)O)cn3CC)CC1)C(F)(F)F | resazurin | H37Rv | 6.25 µg/mL | inhibition | 99%
CCOC(=O)Nc1cc(NCCC(=O)c2ccccc2)c([N+](=O)[O-])c(N)n1 |  | H37Rv | 12.5 µg/mL | inhibition | 0%
CNC(=S)NC |  | H37Rv |  | MIC | >100 µg/mL
CC(C)c1ccc2c(c1)CC[C@H]1[C@](C)(CNCCNC3CCCCCCC3)CCC[C@]21C |  |  |  | MIC | 25 µM
O=C(/C=C/c1ccc(I)cc1)c1ccccc1O |  |  |  | EC50 | >12.5 µg/mL
CC1=C(N)C(=O)C2=C(C1=O)N1C[C@H]3[C@H](N3C)[C@]1(O)[C@@H]2COC(N)=O |  | KM-R |  | MIC | 0.8 µg/mL
Clc1ccc2c(Cl)ccnc2c1 |  | H37Rv |  | MIC | >100 µg/mL
c1ccc(CC2CCN(CCNCC34CC5CC(CC(C5)C3)C4)CC2)cc1 |  |  |  | MIC | 9.4 µM
C=C1CC(C2OCOC3COCOC32)OC1=O | BACTEC | H37Rv | 12.5 µg/mL | inhibition | 22%
Cc1cccc(O)c1 |  | H37Rv |  | MIC | >100 µg/mL
CO[C@H]1/C=C/O[C@@]2(C)Oc3c(C)c(O)c4c(O)c(c5c(c4c3C2=O)NC2(CCN(CC(C)C)CC2)N=5)=NC(=O)/C(C)=C\C=C\[C@H](C)[C@H](O)[C@@H](C)[C@@H](O)[C@@H](C)[C@H](OC(C)=O)[C@@H]1C |  | Strain 77 (H526Q L533P) |  | MIC | 0.25 µg/mL
Nc1c(I)cc(Nc2ccc(S(=O)(=O)O)cc2)c(S(=O)(=O)O)c1I |  | H37Rv |  | MIC | >100 µg/mL
COc1ccc(NC(=S)Nc2ccc(OC)cc2)cc1 | BACTEC |  | 0.5 µM | inhibition | 8%
CN(C)c1ccc(C(c2ccccc2)c2ccccc2)cc1 |  | H37Rv |  | MIC | >100 µg/mL
CC1(C)[C@H]2CC[C@@H](CNCCNCC(c3ccccc3)c3ccccc3)[C@@H]1C2 |  |  |  | MIC | 3.13 µM
CCOC(=O)Nc1cc(N)c([N+](=O)[O-])c(NC/C(C)=N/NC(N)=O)n1 |  | H37Rv | 12.5 µg/mL | inhibition | 0%
Oc1ccc(CCNCCN[C@@H](c2ccccc2)[C@H](O)c2ccccc2)cc1O |  |  |  | MIC | 50 µM
CCC1=C(C)C(=O)OC1n1ccc(=O)[nH]c1=O | BACTEC | H37Rv | 12.5 µg/mL | inhibition | 4%
CO[C@H]1/C=C/O[C@@]2(C)Oc3c(C)c(O)c4c(O)c(c(/C=N/N5CCN(C/C=C/c6ccccc6)CC5)c(O)c4c3C2=O)NC(=O)/C(C)=C\C=C\[C@H](C)[C@H](O)[C@@H](C)[C@@H](O)[C@@H](C)[C@H](OC(C)=O)[C@@H]1C |  | 2983 (rifampin-sensitive) |  | MBC | 0.1 µg/mL
NCC[C@H](O)C(=O)N[C@@H]1C[C@H](N)[C@@H](O[C@H]2O[C@H](CN)[C@@H](O)[C@H](O)[C@H]2O)[C@H](O)[C@H]1O[C@H]1O[C@H](CO)[C@@H](O)[C@H](N)[C@H]1O | broth dilution / resazurin | MDR11 |  | MIC | 1 µg/mL
CCC1(CC)N=C2OCCN2C1=O | BACTEC | H37Rv |  | MIC | ≥12.5 µg/mL
O=C(O)Cc1cccc2ccccc12 |  | H37Rv |  | MIC | >100 µg/mL
CO[C@H]1/C=C/O[C@@]2(C)Oc3c(C)c(O)c4c(=O)c(c5oc6cc(N7CCN(CC(C)C)CC7)cc(=O)c6nc5c4c3=C2O)NC(=O)/C(C)=C\C=C\[C@H](C)[C@H](O)[C@@H](C)[C@@H](O)[C@@H](C)[C@H](OC(C)=O)[C@@H]1C |  | TN1811 |  | MIC | >32 µg/mL
CC(=O)OC(C)C(O)C(O)C(/C=C/C1CC=CC(=O)O1)OC(C)=O | BACTEC | H37Rv |  | MIC | ≥12.5 µg/mL
CC[C@H]1OC(=O)[C@H](C)[C@@H](O[C@H]2C[C@@](C)(OC)[C@@H](O)[C@H](C)O2)[C@H](C)[C@@H](O[C@@H]2O[C@H](C)C[C@H](N(C)C)[C@H]2O)[C@](C)(O)C[C@@H](C)C(=O)[C@H](C)[C@@H](O)[C@]1(C)O |  | ATCC 35822 |  | MBC | >8 µg/mL
CC[C@]1(O)C[C@H]2CN(CCC3=C(NC4CC=CC=C34)[C@@](C(=O)OC)(c3cc4c(cc3OC)N(C)[C@@H]3[C@]45CCN4CC=C[C@@](CC)(C(OC(=O)CCCCCCCCCCCN6C(=O)C=CC6=O)[C@]3(O)C(=O)OC)[C@H]45)C2)C1 | BACTEC | H37Rv | 12.5 µg/mL | inhibition | 14%
CC1CN(c2cc3c(cc2F)c(=O)c(C(=O)O)cn3-c2ccc(F)cc2F)CCN1 |  | ATCC 35823 |  | MBC | 2 µg/mL
CCOC(=O)C1CSC(CCCOc2ccccc2)/C1=N\O |  | H37Rv |  | MIC | >100 µg/mL
CCCCC(CC)CN1CN(CC(CC)CCCC)CC(C)(NCCNCc2cccc3ccccc23)C1 |  |  |  | MIC | 25 µM
COC(=O)c1cc(C(=O)OC)c(CC(=O)C(=O)Nc2ccc(Cl)c(C(F)(F)F)c2)nc1CC(=O)C(=O)Nc1ccc(Cl)c(C(F)(F)F)c1 | BACTEC | H37Rv | 12.5 µg/mL | inhibition | 0%
Fc1ccc(CNCCN(Cc2ccccc2)Cc2ccccc2)cc1 |  |  |  | MIC | 25 µM
CC(C)=CCC/C(C)=C/CNCCNC(C)(C)CC(C)(C)C |  |  |  | MIC | 25 µM
C=CCOC(=O)c1c(C(=O)O)cccc1[N+](=O)[O-] |  | H37Rv |  | MIC | 100 µg/mL
CCCCCCCCCCCNCCNCc1cccc(C)c1 |  |  |  | MIC | 6.25 µM
CCC(C)(O)C#CC1(O)CCCCC1C |  | H37Rv |  | MIC | >100 µg/mL

Repeating the final 6 entries:

structure | method | strain | tested at | measure | value
COC(=O)c1cc(C(=O)OC)c(CC(=O)C(=O)Nc2ccc(Cl)c(C(F)(F)F)c2)nc1CC(=O)C(=O)Nc1ccc(Cl)c(C(F)(F)F)c1 | BACTEC | H37Rv | 12.5 µg/mL | inhibition | 0%
Fc1ccc(CNCCN(Cc2ccccc2)Cc2ccccc2)cc1 |  |  |  | MIC | 25 µM
CC(C)=CCC/C(C)=C/CNCCNC(C)(C)CC(C)(C)C |  |  |  | MIC | 25 µM
C=CCOC(=O)c1c(C(=O)O)cccc1[N+](=O)[O-] |  | H37Rv |  | MIC | 100 µg/mL
CCCCCCCCCCCNCCNCc1cccc(C)c1 |  |  |  | MIC | 6.25 µM
CCC(C)(O)C#CC1(O)CCCCC1C |  | H37Rv |  | MIC | >100 µg/mL